# In paper PMC7864994, “Structure and binding properties of Pangolin-CoV spike glycoprotein inform the evolution of SARS-CoV-2” (2021):
# Biological target: Pangolin-CoV S ectodomain (Pangolin coronavirus MP789 isolate spike) (Pangolin coronavirus MP789 isolate (from Malayan pangolin, Manis javanica))
# Assay: cryo-EM structure
substance,measurement,value
Pangolin-CoV S ectodomain (Pangolin coronavirus MP789 isolate spike) (domain or fragment),stoichiometry N,3
